Values from PubChem BioAssay AID504761 (Drosophila RNAi Screening Center, 2011).
Test: 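Insect host genes that dengue virus relies on to spread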 (primary screen). System: D.Mel-2 cells from Drosophila. Reagent: long dsRNA against Drosophila genes. Conditions: infection with dengue virus type 2; dose and infection time not stated. Read-out: 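Cells stained for dengue envelope protein and imaged; percent of infected cells per well on duplicate plates, ranked by infection, with stained nuclei counted for cell number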. Scale: infection score: higher = more virus-infected cells; cell count: higher = more cells in the well. Hit rule: 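Very low infection ranking in both replicate wells (chance probability at most 0.065), then a retest showing infection dropped 1.5-fold or more at p below 0.05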. Meaning of the calls: active = confirmed: knock-down lowers infection; inactive = not picked or not confirmed.
The screen tested about 22,000 reagents; below is a random part of those that have a named target and a result. Of all reagents, 116 (0.52%) are marked active. 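Calls depend on retest data that are not deposited; infection was ranked per plate without normalising between plates; the unit of the infection score is not given.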 Raw values are not corrected between plates. Names joined by + are all predicted targets of the reagent. Reagent sequences are not shown. Not given: the amount of reagent, the time to read-out.

| predicted target | amplicon | infection score, replicate 1 | infection score, replicate 2 | cell count, replicate 1 | cell count, replicate 2 | outcome |
| --- | --- | --- | --- | --- | --- | --- |
| CG2574 | DRSC19862 | 0.71 | 1.04 | 6660 | 6438 | active |
| CG33937 (retired record) | DRSC15148 | 2.85 | 5.58 | 6570 | 7022 | inactive |
| CG11381 | DRSC17780 | 4.24 | 3.61 | 6551 | 6546 | inactive |
| CG11381 | DRSC25125 | 5.54 | 13.3 | 5776 | 5393 | inactive |
| fal | DRSC11087 | 9.07 | 16.3 | 6649 | 5933 | inactive |
| CG10984 | DRSC09817 | 13.5 | 10.1 | 5915 | 5344 | inactive |
| CG10984 | DRSC28387 | – | – | 348 | 432 | inactive |
| Rala | DRSC18703 | 1.25 | 7.26 | 6485 | 6815 | inactive |
| Rala | DRSC27866 | 15.3 | 2.74 | 4174 | 6341 | inactive |
| Syx5 | DRSC03432 | 2.15 | 7.71 | 4979 | 4799 | inactive |
| CG1316 | DRSC08304 | 2.43 | 1.04 | 6178 | 5872 | inactive |
| Hat1 | DRSC12298 | 2.38 | 11.3 | 6400 | 6420 | inactive |
| Hat1 | DRSC29235 | 13.6 | 15.7 | 4856 | 5385 | inactive |
| GluRIB + CG42509 (retired record) | DRSC10258 | 2.98 | 2.89 | 6038 | 5787 | inactive |
| GluRIB + CG42509 (retired record) | DRSC11177 | 1.43 | 0.96 | 6381 | 6164 | inactive |
| GluRIB + CG42509 (retired record) | DRSC25464 | 3.63 | 4.15 | 6254 | 6222 | inactive |
| CG14422 | DRSC17919 | 1.49 | 3.08 | 6304 | 5947 | inactive |
| CG14422 | DRSC25359 | 15.7 | 9.88 | 4148 | 3412 | inactive |
| Cdk8 | DRSC11113 | 10.5 | 2.45 | 5860 | 5953 | inactive |
| Cdk8 | DRSC28684 | 22.1 | 19.4 | 3560 | 3922 | inactive |
| agt | DRSC12611 | 10.3 | 2.31 | 5911 | 6275 | inactive |
| bark | DRSC00635 | 2.85 | 2.48 | 6663 | 6810 | inactive |
| bark | DRSC27011 | 6.47 | 13.6 | 6703 | 6733 | inactive |
| CG30010 | DRSC05193 | 0.58 | 0.87 | 6050 | 5165 | inactive |
| PVRAP | DRSC10577 | 1.32 | 2.76 | 6231 | 5834 | inactive |
| stwl | DRSC11400 | 7.6 | 7.02 | 6501 | 6236 | inactive |
| stwl | DRSC23913 | 1.96 | 1.38 | 6273 | 6607 | inactive |
| RhoGEF64C | DRSC08318 | 4.3 | 2.9 | 6657 | 6892 | inactive |
| RhoGEF64C | DRSC08319 | 1.31 | 1.77 | 5935 | 5552 | inactive |
| RhoGEF64C | DRSC25939 | 3.15 | 7.36 | 6406 | 6359 | inactive |
| tko | DRSC18844 | 2.24 | 7.45 | 5799 | 4964 | inactive |
| tko | DRSC27125 | 10.4 | 3.28 | 6343 | 6404 | inactive |
| CG30325 | DRSC05685 | 3.11 | 2.66 | 5658 | 5266 | inactive |
| CG13044 | DRSC09925 | 2.1 | 4.47 | 5848 | 6173 | inactive |
| CG13044 | DRSC28609 | 21.8 | 7.4 | 5509 | 5701 | inactive |
| CG30334 | DRSC05345 | 4.2 | 1.67 | 6308 | 5863 | inactive |
| CG30334 | DRSC24086 | 6.68 | 3.86 | 5943 | 5929 | inactive |
| CG42306 + Gint3 | DRSC06934 | 4.75 | 4.05 | 6057 | 6418 | inactive |
| CG42306 + Gint3 | DRSC29885 | 10.6 | 5.72 | 5766 | 5922 | inactive |
| CG13796 + CG31904 | DRSC22161 | 2.87 | 7.63 | 766 | 1336 | inactive |
| RhoL | DRSC16824 | 20.7 | 19.2 | 3939 | 4805 | inactive |
| RhoL | DRSC23664 | 5.27 | 8.47 | 6492 | 6082 | inactive |
| CCT4 | DRSC02865 | 16.7 | 20.7 | 3173 | 3619 | inactive |
| CCT4 | DRSC28909 | 1.36 | – | 1103 | 514 | inactive |
| CG14671 | DRSC12257 | 12.6 | 2.74 | 5329 | 5833 | inactive |
| GstD3 | DRSC15571 | 4.55 | 2.93 | 6784 | 750 | inactive |
| GstD3 | DRSC24755 | 1.5 | 2.24 | 6351 | 6168 | inactive |
| CG30054 | DRSC05354 | 5.46 | 0.44 | 6316 | 5958 | inactive |
| Or59a | DRSC04631 | 6.25 | 2.36 | 6412 | 6768 | inactive |
| ppk30 | DRSC15302 | 9.28 | – | 5336 | 313 | inactive |
| Nemp | DRSC20206 | 6.19 | 2.62 | 6191 | 6363 | inactive |
| Nemp | DRSC26963 | 7.18 | 8.39 | 6592 | 5720 | inactive |
| hog | DRSC19057 | 1.5 | 0.68 | 6525 | 6725 | inactive |
| hog | DRSC26603 | 1.9 | 1.32 | 6630 | 6043 | inactive |
| et | DRSC19582 | 6.89 | 5.86 | 5997 | 6216 | inactive |
| mei-P22 | DRSC11366 | 3.82 | 2.9 | 6406 | 6000 | inactive |
| mura | DRSC23145 | 1.53 | 1.3 | 6408 | 6861 | inactive |
| mura | DRSC26645 | 1.46 | 5.69 | 6453 | 5918 | inactive |
